The source of these data is EP0563734A1, “9-fluoro-7-oxo-7H-pyrido(1,2,3-de)(1,4)benzoxazine carboxylic acids and esters and their use as antiviral agents” (BAYER AG, priority 1992, dated 1993).

Each structure is given as a SMILES string. A value given as a limit tells only on which side of the number the result lay.

The series relates to Hepatitis B Virus. Nature of the series: HBV test system: HBV-DNA content in the supernatant of HBV-DNA-transfected hepatoma cells (HEP G2.2.15), after PEG precipitation, with a non-radioactive HBV genomic DNA probe. Type of series: cell-based. The settings on record: SI not defined in the patent; cytotoxicity determined in parallel (crystal violet staining or thymidine incorporation). The text has this: Der Nachweis wurde in mit Hepatitis B Virus DNA transfizierten Hepatomzellen (HEP G2.2.15) geführt. Die Ergebnisse der unten aufgeführten Beispiele wurden zu dem in der folgenden Literaturangabe [Sells, M.A.; Chen, M.L., Acs, G., Proc. Natl. Acad. Sci. USA S. 1005 - 1009, Vol. 84 (1987] beschriebenen HBV-Testsystem ermittelt: Transfizierte Hepatomzellen (HEP G2.2.15) wurden mit verschiedenen Konzentrationen der jeweiligen Verbindung inkubiert. Durch Behandlung der transfizierten Hepatomzellinie HEP G2.2.15 mit den erfindungsgemäßen Verbindungen konnte die Reduktion der virusspezifischen HBV-DNA im Überstand sowie eine Reduktion des HBsAg Spiegels gezeigt werden. Es wurde weiter gefunden, daß die erfindungsgemäßen Verbindungen zu einer Reduktion der replikativen Intermediate der Hepatitisviren führen. Im Überstand der Zellkulturen wurde nach PEG Fällung der Gehalt an HBV-DNA bestimmt. Dies geschah unter Verwendung einer nicht radioaktiv markierten HBV genomischen DNA Probe [Pauly, P., 1982, Ph. D. Thesis, University of Göttingen, F.R.G.; Köchel et al., 1990, EMBL, Accession-Nr. X 51790]. Gleichzeitig erfolgte der Nachweis der Beeinflussung der HBsAg Bildung mittels eines kommerziell erhältlichen ELISA Tests. Die angegebenen IC₅₀-Werte beziehen sich auf die Substratkonzentrationen, die unter den oben aufgeführten Testbedingungen eine 50%ige Hemmung der HBV-DNA Konzentration im Überstand bewirken. Tabelle A
Gleichzeitig erfolgte die Bestimmung des möglicherweise vorhandenen cytotoxischen Einflusses der erfindungsgemäßen Verbindungen mittels Kristallviolettfärbung bzw. über den Einbau von radioaktiv markiertem Thymidin in die zelluläre DNA.
(Dividing cells build labelled thymidine or BrdU into new DNA.)

Take `CC1=COc2c(N3CCN(C4CC4)CC3)c(F)cc3c(=O)c(C(=O)O)cn1c23` [Beispiel 9, 10-(4-Cyclopropyl-piperazin-1-yl)-9-fluor-3-methyl-7-oxo-7H-pyrido-[1,2,3-de][1,4]benzoxazin-6-carbonsäure]: the SI result is recorded as “∼ 20”. On to `CCOC(=O)C1=Cn2cc(C(=O)OCC)c(=O)c3cc(F)c(F)c(c32)O1` [Beispiel I, 9,10-Difluor-2-ethoxycarbonyl-7-oxo-7H-pyrido[1,2,3-de][1,4]benzoxazin-6-carbonsäureethylester], for which the SI entry is “∼ 100”.

In the case of `CCOC(=O)c1cn2c3c(c(F)c(F)cc3c1=O)OC(C(C)(C)CCCOc1ccccc1)=C2` [Beispiel VIII, 9,10-Difluor-2-(2-methyl-5-phenoxy-2-pentyl)-7-oxo-7H-pyrido[1,2,3-de][1,4]-benzoxazin-6-carbonsäureethylester], the SI is listed as > 100.
